A mixed list of measured activities; the numbers were collected in NIAID ChemDB.

All rows: host cell toxicity; measure: CC50

CCn: concentration that lowers growth or viability of the cells by n%. An empty or dashed field is not shown. Conditions beyond the fields shown may differ between rows.

smiles	cells	read by	result
CC(=O)c1cccc(-c2cccc(-c3cc(=O)n(O)c4ncccc34)c2)c1	HeLa	-	<100 µM
O=S(=O)(c1cccc2cnccc12)N1CCNCC1	U-937	-	10.5 µg/mL
COc1cccc(-c2ccc(C(=O)N(Cc3cccc(OCCCCCC(=O)OC(=O)O)c3)C(C)C)cc2)c1	BJ	-	>20 µM
Clc1ccc(-c2csc(-n3cccc3)n2)cc1	Lung adenocarcinoma cells	MTT	245 µM
FC(F)(F)c1ccc(Cn2ccc3nc(-c4ccccc4)nc-3c2)cc1	MDBK	-	13 µg/mL
N#C/C(=C(\N)N1CC[N+]2(CC1)CC[N+]1(CCN(/C(N)=C(/C#N)[N+](=O)[O-])CC1)CC2)[N+](=O)[O-]	K562	-	>328.1 µg/mL
Cc1ccc(CN2c3ccccc3C(OCc3ccccc3)=NS2(=O)=O)cc1	MRC-5	-	>63 µM
Cn1c2ccccc2c(=O)c2c(O)ccc(O)c21	OM-10.1	-	0.36 µg/mL
N#Cc1ccc(Oc2ccc(-c3ccncc3)cc2O)c(Cl)c1	Human foreskin fibroblasts	fluorescence	>10 µM
Cc1ccc(C)n1-c1ccc(C(=O)NN2C(=O)c3c(Br)c(Br)c(Br)c(Br)c3C2=O)cc1	Lung adenocarcinoma cells	MTT	251 µM
Nc1nc(N)c2nc(CNc3ccc(C(=O)NC(CCP(=O)(O)O)C(=O)O)cc3)cnc2n1	L1210/R81	-	240 µM
N#Cc1ccc(CN2c3ccccc3C(OCc3ccccc3)=NS2(=O)=O)cc1	MRC-5	-	>62 µM
O=C1CC[C@H](O)c2cc(O)cc(O)c21	BCA	-	2.96 µg/mL
COc1ccc(CCNC(=O)CCO[Si](C)(C)C(C)(C)C)cc1OC	HEK 293	-	<13.5 µM
Cc1ccccc1Cn1ccc2nc(-c3ccccc3)nc-2c1	MDBK	-	55 µg/mL
OC1(c2cn(-c3ccnc4cc(Cl)ccc34)nn2)CCCCC1	BGM	MTT	≥609 µM
Cc1cc(C=O)cc(C)c1Oc1cc(Nc2ccc(C#N)cc2)nc2ccccc12	T-47D	MTT	22.9 µM
O=c1cc(Cc2ccc(CCc3ccc(F)cc3F)cc2)c2cccnc2n1O	HeLa	-	0.26 µM
Cc1ccc(C)n1-c1nc(-c2ccc(Br)cc2)cs1	Lung adenocarcinoma cells	MTT	253 µM
N=C(N)c1ccnc(-c2cc(-c3cc(C(=N)N)ccn3)on2)c1	L6 rat myoblasts	resazurin	130 µM
Cc1ccc(C)n1-c1nc(-c2ccc(F)cc2)cs1	Lung adenocarcinoma cells	MTT	268 µM
CN1c2cc3c(cc2NC(c2ccc(C(=O)O)cc2)c2ccccc21)C(C)(C)CCC3(C)C	HepG2-NTCPsec+	visual reading / absorbance	>25 µM
O=c1cc(-c2ccccc2)c2cccnc2n1O	HeLa	-	<100 µM
COc1cccc2[nH]c3ccccc3c(=O)c12	OM-10.1	-	17 µg/mL
CS[C@@]12CC3C(=O)CC[C@H](O)[C@H]3N1C(=O)[C@@]13C[C@H]4C(=O)C[C@@H](S1)[C@H](O)[C@H]4N3C2=O	293T	luminescence	>100 µM
C[C@@]1(O)[C@H](O)[C@@H](COP(=O)(O)OP(=O)(O)OP(=O)(O)O)O[C@H]1n1ccc2c(N)ncnc21	MDBK cells	-	>50 µM
Nc1nc(NC2CC2)c2ncn(/C=C3/C[C@@H]3CO)c2n1	CBL	-	25.6 µM
NS(=O)(=O)c1cccc(-c2cc(=O)n(O)c3ncccc23)c1	HeLa	-	<100 µM
CCc1nc(CCC(=O)O)cnc1CCC(=O)O	HL-60	MTT	>40 µg/mL
CS[C@@]12CC3=CC=C[C@H](O)[C@H]3N1C(=O)[C@@]13C[C@@H]4[C@@H]([C@@H](O)[C@@H](C[C@@H]4O)S1)N3C2=O	293T	luminescence	>100 µM
CCCCCSc1nc(N)nc2c1ncn2/C=C1/C[C@@H]1CO	MEF	-	156 µM
N#CC(N)=NCCCCCC[NH+]=C(N)NC(N)=NCCCCCCN=C(N)NC(N)=[NH+]CCCCCCN.[Cl-].[Cl-]	P4-CCR5	MTT	90 µg/mL
CCOC(=O)CCCCCOc1cccc(CN(C(=O)c2ccc(-c3cccc(OC)c3)cc2)C(C)C)c1	HEK 293	-	>20 µM
O=C(Cc1cccs1)Nc1ccc(C(=O)/C=C/c2ccc(O)c(O)c2)cc1	CEM-GFP	-	44.6 µM
Cc1ccc(C)n1-c1nc(-c2ccc(Cl)cc2Cl)cs1	Lung adenocarcinoma cells	MTT	232 µM
C#CCCC(=O)CCCc1ccc(OC)c(OC)c1	HEK 293	-	<7.5 µM
CC(=O)c1cnc2c(c1)c(O)c(-c1ccccc1)c(=O)n2O	HeLa	-	<100 µM
Clc1ccc2c(-n3cc(C4CC4)nn3)ccnc2c1	BGM	MTT	≥738 µM
CS[C@@]12CC3C(=O)CC[C@H](O)[C@H]3N1C(=O)[C@@]13C[C@@H]4[C@@H]([C@@H](O)C=C[C@@H]4S1)N3C2=O	293T	luminescence	>100 µM
COC1=CC(=O)c2c(cc(OC)c(C(C)C3=C(O)c4c(O)cc(O)cc4C(=O)C3=O)c2O)C1=O	NCI-H187	-	1.39 µg/mL
C1C[N+]2(CCN1)CC[N+]1(CCNCC1)CC2	K562	-	>672.7 µg/mL
FC(F)(F)c1ccccc1Cn1ccc2nc(-c3ccccc3)nc-2c1	MDBK	-	>100 µg/mL
O=S(=O)(Nc1ccc(Oc2ccc(Cl)cc2O)c(Cl)c1)c1ccc2ccccc2c1	Human foreskin fibroblasts	fluorescence	>10 µM
c1ccc(-c2nc3ccn(Cc4cccc5ccccc45)cc-3n2)cc1	MDBK	-	>100 µg/mL
CC(C)CN1c2ccccc2C(=O)N(Cc2ccccc2)S1(=O)=O	MRC-5	-	>72 µM
O=c1c(-c2ccccc2)c(O)c2cc(S(=O)(=O)Nc3ccccc3)cnc2n1O	HeLa	-	<100 µM
C=Cc1c(C)c2cc3nc(c4c5nc(cc6[nH]c(cc1[nH]2)c(C)c6CC)C(C)C5C(=O)C4CC(=O)OC)[C@@H](CCC(=O)OC/C=C(\C)CCC[C@@H](C)CCC[C@@H](C)CCCC(C)C)[C@@H]3C	Huh7.5	WST	328 µg/mL
FCc1cn(-c2ccnc3cc(Cl)ccc23)nn1	BGM	MTT	763 µM
CCOC(=O)CCCCCOc1cccc(CN(C(=O)c2ccc(-c3ccc4[nH]ccc4c3)cc2)C(C)C)c1	RAJI	-	>20 µM
COc1cc(O)c2c(c1)[C@H](O)[C@@H](O)CC2=O	NCI-H187	-	12.08 µg/mL
CCOC(=O)COc1ccc(CNC(C)C)cc1	RAJI	-	>20 µM
NC(=O)Nc1ccc(Oc2ccc(Cl)cc2O)c(Cl)c1	Human foreskin fibroblasts	fluorescence	>10 µM
CSc1nc(Cl)c(C=O)c(N2CC[N+]3(CC2)CC[N+]2(CCN(c4nc(SC)nc(Cl)c4C=O)CC2)CC3)n1	GMK	-	>552 µg/mL
CC[C@@H]1CN2CC[C@]34c5ccccc5N5[C@H]6C7O[C@@]53[C@@H](C[C@@]6(O)OC7CO)[C@H]1C[C@H]24	HL-60	MTT	>50 µM
O=C1c2ccccc2N(Cc2ccc(C(F)(F)F)cc2)S(=O)(=O)N1Cc1ccccc1	MRC-5	-	>56 µM
c1ccc(-c2nc3ccn(CC4CCCCC4)cc-3n2)cc1	MDBK	-	20 µg/mL
Nc1nc(N)c2nc(CNc3ccc(C(=O)NC(CCCP(=O)(O)O)C(=O)O)cc3)cnc2n1	L1210/R81	-	>460 µM
CS[C@@]1(Cc2ccccc2O)NC(=O)/C(=C/c2ccccc2)NC1=O	293T	luminescence	>100 µM
NCc1cccc(-c2cnc3c(c2)c(O)c(-c2ccccc2)c(=O)n3O)c1	HeLa	-	<100 µM
C[C@H](NC(=O)[C@H](Cc1ccccc1)C[C@@H](O)[C@H](Cc1ccccc1)NC(=O)OC(C)(C)C)C(=O)N[C@@H]1C(=O)N(C)c2ccccc2-c2ccccc21	U-2 OS	-	>10 µM
CO[C@H]1CC(=O)c2c(O)cccc2[C@H]1O	NCI-H187	-	2.86 µg/mL

For reference, 6 entries again:

smiles	cells	read by	result
C1C[N+]2(CCN1)CC[N+]1(CCNCC1)CC2	K562	-	>672.7 µg/mL
FCc1cn(-c2ccnc3cc(Cl)ccc23)nn1	BGM	MTT	763 µM
Cc1ccccc1Cn1ccc2nc(-c3ccccc3)nc-2c1	MDBK	-	55 µg/mL
C[C@@]1(O)[C@H](O)[C@@H](COP(=O)(O)OP(=O)(O)OP(=O)(O)O)O[C@H]1n1ccc2c(N)ncnc21	MDBK cells	-	>50 µM
Cc1ccc(CN2c3ccccc3C(OCc3ccccc3)=NS2(=O)=O)cc1	MRC-5	-	>63 µM
N#C/C(=C(\N)N1CC[N+]2(CC1)CC[N+]1(CCN(/C(N)=C(/C#N)[N+](=O)[O-])CC1)CC2)[N+](=O)[O-]	K562	-	>328.1 µg/mL